Only a part is listed here, and it is no random draw. Inconclusive results are not listed. Activity calls are given as the source filed them. Calls follow the shape of the dose curve; as a rule, active = well fitted inhibition curve with a large enough effect; inconclusive = small, poorly fitted or top-dose-only effect, or another doubt; inactive = no such curve, though single readings can be large or run the other way.
experiment: Primary qHTS for delayed death inhibitors of the malarial parasite plastid, 96 hour incubation; settings: P. falciparum luciferase reporter growth
Potency is read from the fitted curve at half-maximal effect.

Compound | Potency
O=C(NCC1(N2CCCCC2)CCCCC1)c1cncc(Br)c1 | active: 2.08 µM
O=C(NCC1(N2CCOCC2)CCCCC1)c1cc2ccccc2o1 | active: 11.7 µM
O=C(NCC1(N2CCCCC2)CCCCC1)c1ccc(Cl)s1 | active: 13.1 µM
CCCCOc1ccc(C(=O)NCC2(N3CCOCC3)CCCCC2)cc1 | active: 14.7 µM
